A mixed list of measured activities; the numbers were collected in NIAID ChemDB.

Common to all: growth or infection tests; agent: Mycobacterium tuberculosis

ECn is the concentration giving n% inhibition of infection, replication or growth. An empty or dashed field is not shown. Conditions beyond the fields shown may differ between rows. A number after MIC or MFC names an inhibition level or a share of isolates. MIC bound comes from a single tested concentration. Percent inhibition refers to the dose given; in toxicity tests it is the harm to the cells.

SMILES	read-out	strain or isolate	cell line	tested at	method	result
CO[C@H]1/C=C/O[C@@]2(C)Oc3c(C)c(O)c4c(O)c(c(/C=N/N5CCN(C)CC5)c(O)c4c3C2=O)NC(=O)/C(C)=C\C=C\[C@H](C)[C@H](O)[C@@H](C)[C@@H](O)[C@@H](C)[C@H](OC(C)=O)[C@@H]1C	MBC	-	-	-	-	0.5 µg/mL
O=C1CCCNn2c(nc3ncccc3c2=O)N1	MIC bound	H37Rv	-	-	resazurin	>6.25 µg/mL
Oc1ccc(-c2cn3cc(Cl)sc3n2)cc1	MIC	H37Rv	-	-	-	>6.25 µg/mL
CC(=O)c1ccc(N2CCN(C(=O)c3cccc(Cl)c3)CC2)cc1	MIC90	BioA underexpression strain	-	-	turbidity	2.3 µM
COc1cc(C(O)(CCN(C)C)C(c2cc(-c3cccc(C)c3)cnc2OC)c2cccc(OC)c2F)cc(OC)n1	EC90	H37Rv	-	-	fluorescence	7.86 µM
CN(C)C/C=C(/c1ccc(-c2ccc(Br)cc2)cc1)c1ccc([N+](=O)[O-])cc1	MIC	H37Rv	-	-	-	36.5 µg/mL
Nc1nc(-c2cccc3c2oc2ccccc23)c2ccn([C@@H]3O[C@H](CO)C(O)C3O)c2n1	MIC	My 331/88	-	-	MTT	>250 µM
CCCC(=O)N1CCN(c2ccc(C(C)=O)cc2)CC1	MIC50	BioA overexpression strain	-	-	turbidity	>50 µM
c1ccc(-c2cc3ccc(N4CCNCC4)nc3nc2N2CCCCC2)cc1	inhibition	H37Rv	-	6.25 µg/mL	-	89%
C[n+]1cc2cc3c(cc2c2ccc4cc5c(cc4c21)OCO5)OCO3	MIC	H37Rv	-	-	BACTEC	<12.5 µg/mL
c1ccc(-c2cc3ccc(N4CCCCC4)nc3nc2N2CCCCC2)cc1	MIC	H37Rv	VERO	-	-	6.25 µg/mL
CN1Cc2cc(N3CCN(C(=O)c4cccc(Cl)c4)CC3)ccc2C1=O	MIC90	BioA underexpression strain	-	-	turbidity	9.4 µM
NNC(=O)c1ccncc1	MIC	H37Rv	-	-	resazurin	0.07 µg/mL
COc1ccccc1C1OC2=C(Nc3ccc(Cl)cc3N2)C1=O	MIC bound	H37Rv	-	-	BACTEC	>12.5 µg/mL
COc1ccccc1-c1cn2cc(Cl)sc2n1	inhibition	H37Rv	-	6.25 µg/mL	-	47%
CC(=O)c1ccc(N2CCN(C(=O)c3cccc(Cl)c3)CC2)s1	MIC90	BioA underexpression strain	-	-	turbidity	3.8 µM
Cc1cc(Cl)ccc1N1C(=O)C(=O)C(c2nc3ccccc3s2)/C(=N/NC(=O)c2ccccc2O)C1=O	MIC bound	H37Rv	-	-	BACTEC	>12.5 µg/mL
COc1ccc2cc(-c3ccccc3)c(N3CCN(C(=O)OC(C)C)CC3)nc2n1	inhibition	H37Rv	-	6.25 µg/mL	-	43%
NC(=O)c1cnccn1	MIC	CDC72 niacin-positive	-	-	-	8 µg/mL
CN[C@@H]1[C@H](O[C@H]2[C@H](O[C@H]3[C@H](O)[C@@H](O)[C@H](N=C(N)N)[C@@H](O)[C@@H]3N=C(N)N)O[C@@H](C)[C@]2(O)C=O)O[C@@H](CO)[C@H](O)[C@H]1O	MBC	-	-	-	-	4 µg/mL
NC[C@@H]1O[C@H](O[C@H]2[C@@H](O)[C@H](O[C@@H]3[C@@H](O)[C@H](N)C[C@H](N)[C@H]3O[C@H]3O[C@H](CO)[C@@H](O)[C@H](O)[C@H]3N)O[C@@H]2CO)[C@H](N)[C@@H](O)[C@@H]1O	MIC	MTB24 (S)	-	-	-	1.5 µg/mL
OC[C@H]1O[C@@H](n2ccc3c(-c4ccsc4)nc(Cl)nc32)C(O)C1O	MIC	My 331/88	-	-	MTT	125 µM
CN(C)CC=C(c1ccccc1)c1ccc(-c2ccc(Br)cc2)cc1	MIC	ALI 452	-	-	-	≤5 µg/mL
COc1cc2c(cc1O)c[n+](C)c1c3cc4c(cc3ccc21)OCO4	inhibition	H37Rv	-	12.5 µg/mL	BACTEC	87%
CC(=O)NC[C@H]1CN(c2ccc(N3CCN(c4ccc([N+](=O)[O-])s4)CC3)c(F)c2)C(=O)O1	MIC	H37Ra	-	-	-	≤0.125 µg/mL
Cc1nc(N)nc2c1ccn2[C@@H]1O[C@H](CO)C(O)C1O	MIC	My 331/88	-	-	MTT	>250 µM
CN(C)C/C=C(/c1ccccc1)c1ccc(-c2ccc(Br)cc2)cc1	MIC	ALI 452	-	-	-	≤5 µg/mL
NCC[C@H](O)C(=O)N[C@@H]1C[C@H](N)[C@@H](O[C@H]2O[C@H](CN)[C@@H](O)[C@H](O)[C@H]2O)[C@H](O)[C@H]1O[C@H]1O[C@H](CO)[C@@H](O)[C@H](N)[C@H]1O	Median MIC	H37Rv	-	-	-	0.47 µg/mL
O=C(O)c1cc2c([nH]1)-c1cccnc1C(=O)C2=O	MIC bound	H37Rv	-	-	BACTEC	>12.5 µg/mL
CN(C)C/C=C(/c1ccc(Br)cc1)c1ccc(-c2ccc(Br)cc2)cc1	MIC	ALI 909	-	-	-	17 µg/mL
O=C1CCc2cc(N3CCN(C(=O)c4ccc5c(c4)OCO5)CC3)ccc21	MIC90	Wild type without biotin	-	-	turbidity	7.1 µM
Nc1ccc2cc(-c3ccccc3)c(N3CCCCC3)nc2n1	MIC	H37Rv	-	-	-	>6.25 µg/mL
Cc1cc(O)c(C(=O)/C=C/c2ccnc3ccccc23)c(=O)o1	inhibition	H37Rv	-	12.5 µg/mL	BACTEC	-15%
C/C(=C/CO)CCC[C@H](C)CCC[C@H](C)CCCC(C)C	MIC	H37Rv	-	-	-	2 µg/mL
COc1ccc(CCN2C(=O)C(=O)N(c3ccc(C)cc3)C2=O)cc1OC	inhibition	H37Rv	-	12.5 µg/mL	BACTEC	0%
Nc1ccc(C(=O)O)c(O)c1	Mean MIC	H37Rv	-	-	-	0.69 µg/mL
COc1ccc(-n2c(CCC(=O)O)nc3c2C(=O)c2ccccc2C3=O)cc1	MIC bound	H37Rv	-	-	BACTEC	>12.5 µg/mL
OC[C@H]1O[C@@H](n2ccc3c(-c4ccsc4)nc(F)nc32)C(O)C1O	MIC	My 331/88	-	-	MTT	125 µM
CCN(CC)C(=S)[S][Bi]([S]C(=S)N(CC)CC)[S]C(=S)N(CC)CC	MIC	H37Rv	-	-	BACTEC	1.6 µg/mL
OC[C@H]1O[C@@H](n2ccc3c(-c4ccccc4)nc(Cl)nc32)C(O)C1O	MIC	My 331/88	-	-	MTT	250 µM
Cc1ccc(S(=O)(=O)OCCn2sc3nc(C)cc(C)c3c2=O)cc1	EC50	H37Rv	-	-	-	>12.5 µg/mL
C=C1C(=O)OC2C1CCC1(C)CC(Br)C(=O)C(C)C21	MIC bound	H37Rv	-	-	BACTEC	>12.5 µg/mL
Cc1nc(-c2ccco2)c2ccn([C@@H]3O[C@H](CO)C(O)C3O)c2n1	MIC	My 331/88	-	-	MTT	>250 µM
O=c1ccc2c(-c3ccccc3)cc(N3CCCCC3)nc2[nH]1	inhibition	H37Rv	-	6.25 µg/mL	-	0%
COc1cc(C(O)(CCN(C)C)C(c2cc(-c3ccccn3)cnc2OC)c2cccc(OC)c2F)cc(OC)n1	EC90	H37Rv	-	-	fluorescence	7.65 µM
NC[C@@H]1O[C@H](O[C@H]2[C@@H](O)[C@H](O[C@@H]3[C@@H](O)[C@H](N)C[C@H](N)[C@H]3O[C@H]3O[C@H](CO)[C@@H](O)[C@H](O)[C@H]3N)O[C@@H]2CO)[C@H](N)[C@@H](O)[C@@H]1O	Mean MIC	H37Ra	-	-	-	5 µg/mL
O=C(ONC(=O)[C@H]1C2C=CC(C2)[C@@H]1C(=O)NOC(=O)c1ccccc1)c1ccccc1	MIC bound	H37Rv	-	-	resazurin	>6.25 µg/mL
Cc1cc(C)c2c(=O)n(CC(O)CNCC(C)C)sc2n1	MIC	H37Rv	-	-	-	>12.5 µg/mL
COc1cc2c(C)[n+](C)c3c4cc5c(cc4ccc3c2cc1OC)OCO5	MIC	H37Rv	-	-	BACTEC	<12.5 µg/mL
COc1ccc(-c2cn3cc(Cl)sc3n2)cc1	inhibition	H37Rv	-	6.25 µg/mL	-	78%
COc1cc(C(O)(CCN(C)C)C(c2cc(-c3cccnc3)cnc2OC)c2cccc(OC)c2F)cc(OC)n1	EC90	H37Rv	-	-	fluorescence	19.16 µM
CN[C@@H]1[C@H](O[C@H]2[C@H](O[C@H]3[C@H](O)[C@@H](O)[C@H](N=C(N)N)[C@@H](O)[C@@H]3N=C(N)N)O[C@@H](C)[C@]2(O)C=O)O[C@@H](CO)[C@H](O)[C@H]1O	MIC	MTB9 (RIF-R)	-	-	-	1.25 µg/mL
O=[N+]([O-])c1cc2cc(-c3ccccc3)c(N3CCCCC3)nc2nc1N1CCCCC1	MIC	H37Rv	-	-	-	>6.25 µg/mL
Nc1ccc(S(N)(=O)=O)cc1SSc1cc(S(N)(=O)=O)ccc1N	inhibition	H37Rv	-	12.5 µg/mL	BACTEC	0%
C#CCN1C(=O)c2c(C)cc(C)nc2S1(=O)=O	MIC	H37Rv	-	-	-	>12.5 µg/mL
NC(N)=N[C@H]1[C@H](O)[C@@H](O)[C@H](O[C@@H]2O[C@H](CO)[C@@H](O)[C@H](O)[C@H]2O)[C@@H](N=C(N)N)[C@@H]1O	MIC	666	-	-	-	>100 µg/mL
COc1ccc(-c2cn3ccsc3n2)cc1	inhibition	H37Rv	-	6.25 µg/mL	-	74%
CSc1cccc(-n2c3nc(=O)n(C)c(=O)c-3nc3ccccc32)c1	MIC bound	H37Rv	-	-	BACTEC	>12.5 µg/mL
c1ccc(-c2cn3ccsc3n2)cc1	inhibition	H37Rv	-	6.25 µg/mL	-	0%
O=c1c2cc(O)ccc2n2nnc3ccc(NCCNCCO)c1c32	inhibition	H37Rv	-	12.5 µg/mL	BACTEC	45%
C/C(=C\CO)CCC[C@H](C)CCC[C@H](C)CCCC(C)C	EC50	H37Rv	-	-	-	<100 µg/mL
Cc1nc(Cl)nc2c1ccn2[C@@H]1O[C@H](CO)C(O)C1O	MIC	My 331/88	-	-	MTT	>250 µM
CC(=O)N=C1N(/C=C2\C(=O)Oc3ccccc3C2=O)C(=O)/C(=C/c2ccc(Cl)cc2Cl)N1C	inhibition	H37Rv	-	12.5 µg/mL	BACTEC	7%
COc1cc2c(cc1OC(C)C)c[n+](C)c1c3cc4c(cc3ccc21)OCO4	inhibition	H37Rv	-	12.5 µg/mL	BACTEC	77%
O=C1c2cccnc2C(=O)N1CCO	inhibition	H37Rv	-	12.8 µg/mL	BACTEC	7%
CC(C)CCC[C@@H](C)CCC[C@@H](C)CCCC(C)CC(=O)O	MIC	H37Rv	-	-	-	>128 µg/mL
CCC(C)OC(=O)N1CCN(c2nc3nc(N4CCCCC4)ccc3cc2-c2ccccc2)CC1	MIC	H37Rv	-	-	-	>6.25 µg/mL
CN(C)CCN1C(=O)c2ccccc2N(C)c2ccccc21	inhibition	H37Rv	-	12.5 µg/mL	BACTEC	15%
Cc1cc(C)c2c(n1)S(=O)(=O)N(CC(=O)c1ccccn1)C2=O	EC50	H37Rv	-	-	-	>12.5 µg/mL
Nc1ccc2c(-c3ccccc3)cc(N3CCN(c4ccccc4)CC3)nc2n1	MIC	H37Rv	-	-	-	>6.25 µg/mL
C=COC=C.O=C1C=CC(=O)O1	MIC bound	H37Rv	-	-	resazurin	>6.25 µg/mL
CC(C)=CCC/C(C)=C/CO	MIC	H37Rv	-	-	-	64 µg/mL
CN(C)CC=C(c1ccc(Br)cc1)c1ccc(-c2ccc(Br)cc2)cc1	MIC	ALI 258	-	-	-	≤4 µg/mL
Cn1c2cc(F)ccc2c(=O)c2c(O)cc3c(c21)C=CC(C)(C)O3	MIC	H37Rv	-	-	BACTEC	≥12.5 µg/mL
CCC[C@@H]1C[C@@H](C(=O)N[C@@H]([C@H]2O[C@H](SC)[C@H](O)[C@@H](O)[C@H]2O)[C@@H](C)O)N(C)C1	Mean MIC	H37Rv	-	-	-	>256 µg/mL
COc1cc(C(O)(CCN(C)C)C(c2cc(-c3ccc(F)cc3)cnc2OC)c2cccc(OC)c2F)cc(OC)n1	EC90	H37Rv	-	-	fluorescence	4.56 µM
CCN1CCN(c2cc(-c3ccccc3)c3ccc(N)nc3n2)CC1	MIC	H37Rv	-	-	-	>6.25 µg/mL
COc1ccc(CCN2C(=O)C(=O)N(C)C2=O)cc1OC	MIC bound	H37Rv	-	-	BACTEC	>12.5 µg/mL
Cc1nc(-c2ccsc2)c2ccn([C@@H]3O[C@H](CO)C(O)C3O)c2n1	MIC	My 331/88	-	-	MTT	>250 µM
CN1C/C(=C\c2ccc(Cl)cc2)C(=O)/C(=C/c2ccc(Cl)cc2)C1	inhibition	H37Rv	-	12.5 µg/mL	BACTEC	59%
Cc1cc(C)c2c(=O)n(CC(O)CNc3ccc4c(c3)OCO4)sc2n1	inhibition	H37Rv	-	12.5 µg/mL	-	93%

For reference, 6 entries again:

SMILES,read-out,strain or isolate,cell line,tested at,method,result
c1ccc(-c2cn3ccsc3n2)cc1,inhibition,H37Rv,-,6.25 µg/mL,-,0%
C#CCN1C(=O)c2c(C)cc(C)nc2S1(=O)=O,MIC,H37Rv,-,-,-,>12.5 µg/mL
NC[C@@H]1O[C@H](O[C@H]2[C@@H](O)[C@H](O[C@@H]3[C@@H](O)[C@H](N)C[C@H](N)[C@H]3O[C@H]3O[C@H](CO)[C@@H](O)[C@H](O)[C@H]3N)O[C@@H]2CO)[C@H](N)[C@@H](O)[C@@H]1O,Mean MIC,H37Ra,-,-,-,5 µg/mL
c1ccc(-c2cc3ccc(N4CCNCC4)nc3nc2N2CCCCC2)cc1,inhibition,H37Rv,-,6.25 µg/mL,-,89%
COc1ccccc1-c1cn2cc(Cl)sc2n1,inhibition,H37Rv,-,6.25 µg/mL,-,47%
CN(C)CC=C(c1ccccc1)c1ccc(-c2ccc(Br)cc2)cc1,MIC,ALI 452,-,-,-,≤5 µg/mL